# Sequence variants of PSTVd loop 15 after infection

PSTVd intermediate strain, loop 15: wild type GGAAACCGCUACUAC, pool pattern GGAAACCGNNNNNNC; upper and lower strand joined, each 5' to 3', the first 7 letters being the upper strand, closing pairs included.

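A pool of all variants was put on leaves of three Nicotiana benthamiana plants. Samples came from the inoculated region at 5 days, the leaf margin at 10 and upper systemic leaves at 12.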

Numbers give reads per thousand; 0 = not seen among the reads, higher = more abundant.
Each value is the mean of three plants.
"Pool" is the share in the plasmid pool used as inoculum, on the same scale.
The inoculated region was read from the minus strand, the other sites from the plus strand.
With 43,870-66,106 reads a sample, very low values are single reads.
For reference, wild type rose from 33.9 per thousand in the pool to 202, 200, 159 (inoculated region), 724, 746, 710 (leaf margin) and 856, 883, 880 (systemic leaves).
Sequences that differ at fixed positions probably stem from PCR or sequencing errors, and defective variants can be carried along by functional ones.

* GGAAACCGUUUAACC (pool 0.192) -> inoculated region 0.0940; leaf margin 0.0108; systemic leaves 0
* GGAAACCGGCCUAGC (pool 0.240) -> inoculated region 0.141; leaf margin 0.00668; systemic leaves 0
* GGAAACCGCGGAGUC (pool 0.368) -> inoculated region 0.186; leaf margin 0.0121; systemic leaves 0
* GGAAACCGACUCCUC (pool 0.176) -> inoculated region 0.0679; leaf margin 0.00539; systemic leaves 0
* GGAAACCGUACCUUC (pool 0.144) -> inoculated region 0.351; leaf margin 0.777; systemic leaves 0
* GGAAACCGUACUCCC (pool 0.240) -> inoculated region 0.113; leaf margin 0.0134; systemic leaves 0
* GGAAACCGUCCUGCC (pool 0.224) -> inoculated region 0.0630; leaf margin 0.0134; systemic leaves 0
* GGAAACCGGAAAGAC (pool 0.272) -> inoculated region 0.0913; leaf margin 0.0200; systemic leaves 0.00537
* GGAAACCGAGCUCUC (pool 0.176) -> inoculated region 0.188; leaf margin 0.00668; systemic leaves 0
* GGAAACCGAAUCAGC (pool 0.192) -> inoculated region 0.107; leaf margin 0.0134; systemic leaves 0
* GGAAACCGAAGCGCC (pool 0.0960) -> inoculated region 0.0825; leaf margin 0; systemic leaves 0
* GGAAACCGGCGUGGC (pool 0.208) -> inoculated region 0.115; leaf margin 0; systemic leaves 0.00537
* GGAAACCGUUAUGGC (pool 0.208) -> inoculated region 0.0847; leaf margin 0.0228; systemic leaves 0
* GGAAACCGAAUGGCC (pool 0.256) -> inoculated region 0.123; leaf margin 0.00539; systemic leaves 0
* GGAAACCGAGCAGUC (pool 0.320) -> inoculated region 0.202; leaf margin 0.0249; systemic leaves 0
* GGAAACCGAGGCGUC (pool 0.224) -> inoculated region 0.265; leaf margin 0.0208; systemic leaves 0.00504
* GGAAACCGUUAAUUC (pool 0.192) -> inoculated region 0.321; leaf margin 0.119; systemic leaves 0.114
* GGAAACCGCAGCUAC (pool 0.240) -> inoculated region 0.217; leaf margin 0.106; systemic leaves 0
* GGAAACCGGUUAAGC (pool 0.288) -> inoculated region 0.142; leaf margin 0.00668; systemic leaves 0
* GGAAACCGCGGGCCC (pool 0.176) -> inoculated region 0.0811; leaf margin 0.0256; systemic leaves 0
* GGAAACCGUCAUAUC (pool 0.176) -> inoculated region 0.434; leaf margin 0.112; systemic leaves 0.0992
* GGAAACCGCUCGAAC (pool 0.272) -> inoculated region 0.300; leaf margin 0.109; systemic leaves 0.0606
* GGAAACCGCACAUUC (pool 0.272) -> inoculated region 0.347; leaf margin 0.0800; systemic leaves 0.0161
* GGAAACCGAAUAAAC (pool 0.272) -> inoculated region 0.102; leaf margin 0.0187; systemic leaves 0
* GGAAACCGCGACAGC (pool 0.288) -> inoculated region 0.0677; leaf margin 0; systemic leaves 0
* GGAAACCGCCGUCUC (pool 0.224) -> inoculated region 0.862; leaf margin 0.00668; systemic leaves 0.00537
* GGAAACCGCAAGCGC (pool 0.240) -> inoculated region 0.0913; leaf margin 0; systemic leaves 0
* GGAAACCGGUCCACC (pool 0.240) -> inoculated region 0.0728; leaf margin 0; systemic leaves 0
* GGAAACCGACAUGCC (pool 0.320) -> inoculated region 0.115; leaf margin 0.0121; systemic leaves 0

Reference: Wu et al. 2024, doi:10.1371/journal.ppat.1012142.